Compound potency records, mixed from different reports. Data source: NIAID ChemDB in PubChem.

All rows: growth or infection tests; organism: Aspergillus niger; read-out: zone

An empty or dashed field is not shown. Lines come from different laboratories, so protocols vary. Zones are inhibition diameters on agar.

{"SMILES": "Clc1ccc(C2=NNc3c4ccccc4c4c5cc(Cl)ccc5nc-4n3C2)cc1", "strain": "MTCC 281", "method": "agar diffusion / visual reading", "dose": "12.5 µg/mL", "value": "11 mm"}
{"SMILES": "NC(=S)c1ccc(OC(=O)CN2CCOCC2)cc1", "strain": "ATCC 16404", "method": "agar diffusion / agar", "dose": "100 µg/mL", "value": "19 mm"}
{"SMILES": "Cc1ccc(NC(=O)c2ccc(CN3CCN(C)CC3)cc2)cc1Nc1nccc(-c2cccnc2)n1", "method": "agar diffusion", "dose": "100 µM", "value": "19 mm"}
{"SMILES": "CSC1=NC(c2ccc(Cl)cc2)C(C#N)=C(N)N1", "strain": "MTCC 282", "method": "agar diffusion", "dose": "100 µg/mL", "value": "17 mm"}
{"SMILES": "CCCC(=Nc1ccc(N)cc1)c1c(C)[nH]n(-c2ccccc2)c1=O", "method": "agar diffusion / agar", "dose": "400 µg/mL", "value": "5 mm"}
{"SMILES": "O=C(COc1ccc(-c2nc(-c3ccccc3)c(-c3ccccc3)s2)cc1)CN1CCCC1", "strain": "ATCC 16404", "method": "agar diffusion / agar", "dose": "100 µg/mL", "value": "24 mm"}
{"SMILES": "Cc1[nH]n(-c2ccccc2)c(=O)c1C(=Nc1ccc(N)cc1)c1ccccc1", "method": "agar diffusion / agar", "dose": "400 µg/mL", "value": "5 mm"}
{"SMILES": "COc1ccc2nc(Cl)c(C3OC(c4sc5ccc(Cl)cc5c4Cl)=NN3C(C)=O)cc2c1", "strain": "ATCC 9029", "method": "agar diffusion / agar", "dose": "40 µg/mL", "value": "16 mm"}
{"SMILES": "Cc1[nH]n(-c2ccccc2)c(=O)c1C(=Nc1ccccc1N)c1ccccc1", "method": "agar diffusion / agar", "dose": "400 µg/mL", "value": "6 mm"}
{"SMILES": "CCOC(=O)Cn1c(C(F)(F)F)nc2ccc([N+](=O)[O-])cc21", "strain": "MTCC 1344", "dose": "500 µg/mL", "value": "500 mm"}
{"SMILES": "COc1ccc2nc3n4c(c5ccccc5c-3c2c1)NN=C(c1ccc(Cl)cc1)C4", "strain": "MTCC 281", "method": "agar diffusion / visual reading", "dose": "25 µg/mL", "value": "8 mm"}
{"SMILES": "O=C(Cc1ccc(-c2nc(-c3ccccc3)c(-c3ccccc3)s2)cc1)CN1CCCC1", "strain": "ATCC 16404", "method": "agar diffusion / agar", "dose": "100 µg/mL", "value": "21 mm"}
{"SMILES": "CS(=O)(=O)c1nc(N)c(C#N)c(-c2ccccc2Cl)n1", "strain": "MTCC 282", "method": "agar diffusion", "dose": "25 µg/mL", "value": "18 mm"}
{"SMILES": "C[C@H]1[C@H](O)[C@@H](C)/C=C/C=C/C=C/C=C/C=C/C=C/C=C/[C@H](O[C@@H]2O[C@H](C)[C@@H](O)[C@H](N)[C@@H]2O)C[C@@H]2O[C@](O)(C[C@@H](O)C[C@@H](O)CC[C@H](O)[C@@H](O)C[C@@H](O)CC(=O)O[C@H]1C)C[C@H](O)[C@H]2C(=O)O", "method": "agar diffusion / agar", "dose": "1000 µg/mL", "value": "15.5 mm"}
{"SMILES": "CC1=Cc2c(CO)c(O)c(C)c(O)c2CO1", "strain": "IFM41398", "method": "agar diffusion", "dose": "100 µM", "value": "16 mm"}
{"SMILES": "Cc1nn(-c2ccccc2)c(O)c1C(=Nc1cccc(N=C(c2ccccc2)c2c(C)nn(-c3ccccc3)c2O)c1)c1ccccc1", "method": "agar diffusion / agar", "dose": "400 µg/mL", "value": "2 mm"}
{"SMILES": "Cc1ccsc1/C=N/NC(N)=O", "method": "agar diffusion", "dose": "250 µg/mL", "value": "0 mm"}
{"SMILES": "C[C@H]1[C@H](O)[C@@H](C)/C=C/C=C/C=C/C=C/C=C/C=C/C=C/[C@H](O[C@@H]2O[C@H](C)[C@@H](O)[C@H](N)[C@@H]2O)C[C@@H]2O[C@](O)(C[C@@H](O)C[C@@H](O)CC[C@H](O)[C@@H](O)C[C@@H](O)CC(=O)O[C@H]1C)C[C@H](O)[C@H]2C(=O)O", "strain": "MTCC 282", "method": "agar diffusion / agar", "dose": "50 µg/mL", "value": "25 mm"}
{"SMILES": "O=C(Cc1ccc(-c2nc(-c3ccccc3)c(-c3ccccc3)s2)cc1)CN1CCCCC1", "strain": "ATCC 16404", "method": "agar diffusion / agar", "dose": "100 µg/mL", "value": "19 mm"}
{"SMILES": "Cc1nn(-c2ccccc2)c2c1C1(C(=O)N(CCCCCCN3C(=O)C4(SCC(=O)N4c4c(C)n(C)n(-c5ccccc5)c4=O)c4ccccc43)c3ccccc31)c1c(C)nn(-c3ccccc3)c1O2", "strain": "MTCC 282", "method": "agar diffusion", "dose": "100 µg/mL", "value": "16 mm"}
{"SMILES": "CC(=O)N1N=C(c2sc3ccc(Cl)cc3c2Cl)OC1c1ccccc1", "strain": "ATCC 9029", "method": "agar diffusion / agar", "dose": "40 µg/mL", "value": "9 mm"}
{"SMILES": "CC(=O)OC[C@H]1O[C@@H]([n+]2[nH]c(-c3cc4ccccc4[nH]3)nc2S[C@@H]2O[C@H](COC(C)=O)[C@@H](OC(C)=O)[C@H](OC(C)=O)[C@H]2OC(C)=O)[C@H](OC(C)=O)[C@@H](OC(C)=O)[C@@H]1OC(C)=O", "method": "agar diffusion", "dose": "5000 µg/mL", "value": "0 mm"}
{"SMILES": "CCn1c(C(F)(F)F)nc2cc([N+](=O)[O-])ccc21", "strain": "MTCC 1344", "dose": "500 µg/mL", "value": "750 mm"}
{"SMILES": "COc1ccc(C2=NNc3c4ccccc4c4c5cc(C)ccc5nc-4n3C2)cc1", "strain": "MTCC 281", "method": "agar diffusion / visual reading", "dose": "12.5 µg/mL", "value": "8 mm"}
{"SMILES": "Cc1ccc2c(c1)C1(SCC(=O)N1c1c(C)n(C)n(-c3ccccc3)c1=O)C(=O)N2CCCCCCBr", "strain": "MTCC 282", "method": "agar diffusion", "dose": "100 µg/mL", "value": "15 mm"}
{"SMILES": "NNC(=O)c1cc2ccccc2[nH]1", "method": "agar diffusion", "dose": "5000 µg/mL", "value": "0 mm"}
{"SMILES": "CC(=O)N1N=C(c2sc3ccc(Cl)cc3c2Cl)OC1c1cccc(Oc2ccccc2)c1", "strain": "ATCC 9029", "method": "agar diffusion / agar", "dose": "40 µg/mL", "value": "13 mm"}
{"SMILES": "OC(Cn1cncn1)(Cn1cncn1)c1ccc(F)cc1F", "strain": "MTCC 1881", "dose": "500 µg/mL", "value": "30 mm"}
{"SMILES": "CSC1=NC(c2ccccc2Cl)C(C#N)=C(N)N1", "strain": "MTCC 282", "method": "agar diffusion", "dose": "100 µg/mL", "value": "18 mm"}
{"SMILES": "COc1ccc2[nH]c3nc(NNC(=O)c4ccccc4C(=O)O)c4ccccc4c3c2c1", "strain": "MTCC 281", "method": "agar diffusion / visual reading", "dose": "6.25 µg/mL", "value": "6 mm"}
{"SMILES": "Cc1nn(-c2ccccc2)c2c1C1(C(=O)N(CCCCCCN3C(=O)C4(SCC(=O)N4c4c(C)n(C)n(-c5ccccc5)c4=O)c4cc(F)ccc43)c3ccccc31)c1c(C)nn(-c3ccccc3)c1O2", "strain": "MTCC 282", "method": "agar diffusion", "dose": "100 µg/mL", "value": "16 mm"}
{"SMILES": "O=C(O)c1ccccc1C(=O)NNc1nc2[nH]c3ccc(Cl)cc3c2c2ccccc12", "strain": "MTCC 281", "method": "agar diffusion / visual reading", "dose": "3.125 µg/mL", "value": "13 mm"}
{"SMILES": "CC(=O)OC[C@H]1O[C@@H](Sc2n[nH]c(-c3cc4ccccc4[nH]3)n2)[C@H](OC(C)=O)[C@@H](OC(C)=O)[C@H]1OC(C)=O", "method": "agar diffusion", "dose": "5000 µg/mL", "value": "0 mm"}
{"SMILES": "C[C@H]1[C@H](O)[C@@H](C)/C=C/C=C/C=C/C=C/C=C/C=C/C=C/[C@H](O[C@@H]2O[C@H](C)[C@@H](O)[C@H](N)[C@@H]2O)C[C@@H]2O[C@](O)(C[C@@H](O)C[C@@H](O)CC[C@H](O)[C@@H](O)C[C@@H](O)CC(=O)O[C@H]1C)C[C@H](O)[C@H]2C(=O)O", "method": "agar diffusion", "dose": "10 µg/mL", "value": "10 mm"}
{"SMILES": "CS(=O)(=O)c1nc(N)c(C#N)c(-c2ccc(O)cc2)n1", "strain": "MTCC 282", "method": "agar diffusion", "dose": "100 µg/mL", "value": "20 mm"}
{"SMILES": "C=C1CC[C@@H](OC(C)=O)[C@]2(C)[C@H](OC(C)=O)[C@H](OC(C)=O)[C@H](OC(C)=O)[C@@]3(CO3)[C@H]2[C@@H](OC(C)=O)[C@@]2(O)[C@H](C)C(=O)O[C@@H]2[C@@H]1Cl", "method": "agar diffusion / agar", "dose": "200 µg/mL", "value": "10 mm"}
{"SMILES": "CS(=O)(=O)C1=NC(c2cccc3cc4ccccc4cc23)C(C#N)=C(N)N1", "strain": "MTCC 282", "method": "agar diffusion", "dose": "50 µg/mL", "value": "19 mm"}
{"SMILES": "Cc1ccc2c(c1)C1(SCC(=O)N1c1c(C)n(C)n(-c3ccccc3)c1=O)C(=O)N2CCCCCCN1C(=O)C2(c3ccccc31)c1c(C)nn(-c3ccccc3)c1Oc1c2c(C)nn1-c1ccccc1", "strain": "MTCC 282", "method": "agar diffusion", "dose": "100 µg/mL", "value": "16 mm"}
{"SMILES": "CSc1ccc(C2OC(c3sc4ccc(Cl)cc4c3Cl)=NN2C(C)=O)cc1", "strain": "ATCC 9029", "method": "agar diffusion / agar", "dose": "40 µg/mL", "value": "29 mm"}
{"SMILES": "C/C(Cl)=C/C=C/C=C/C=C/C=C/C(O)=C1\\C(=O)[C@H](CC(N)=O)N(C2OC[C@@H](O)[C@H](O)[C@@H]2O[C@@H]2OC[C@@H](O[C@@H]3O[C@H](C)[C@@H](O)[C@@H]3O)[C@@H](O)[C@@H]2O)C1=O", "method": "agar diffusion / agar", "dose": "100 µg/disc", "value": "28 mm"}
{"SMILES": "Cc1ccc2[nH]c3c(c2c1)c1ccccc1c1nnc(C(C)(C)C)n13", "strain": "MTCC 281", "method": "agar diffusion / visual reading", "dose": "12.5 µg/mL", "value": "8 mm"}
{"SMILES": "CSC1=NC(c2cccc3cc4ccccc4cc23)C(C#N)=C(N)N1", "strain": "MTCC 282", "method": "agar diffusion", "dose": "50 µg/mL", "value": "15 mm"}
{"SMILES": "CCOC(=O)Cn1c(C(F)(F)F)nc2ccc(C(=O)c3ccccc3)cc21", "strain": "MTCC 1344", "dose": "500 µg/mL", "value": "700 mm"}
{"SMILES": "Cc1ccc2c(c1)C1(SCC(=O)N1c1c(C)n(C)n(-c3ccccc3)c1=O)C(=O)N2CCCCCCN1C(=O)C2(c3cc(F)ccc31)c1c(C)nn(-c3ccccc3)c1Oc1c2c(C)nn1-c1ccccc1", "strain": "MTCC 282", "method": "agar diffusion", "dose": "100 µg/mL", "value": "18 mm"}
{"SMILES": "NC(=S)c1ccc(OC(=O)CN2CCCCC2)cc1", "strain": "ATCC 16404", "method": "agar diffusion / agar", "dose": "100 µg/mL", "value": "21 mm"}
{"SMILES": "CSC1=NC(c2cccc([N+](=O)[O-])c2)C(C#N)=C(N)N1", "strain": "MTCC 282", "method": "agar diffusion", "dose": "25 µg/mL", "value": "12 mm"}
{"SMILES": "Clc1ccc(COC(Cn2ccnc2)c2ccc(Cl)cc2Cl)c(Cl)c1", "method": "agar diffusion", "dose": "100 µg/mL", "value": "18 mm"}
{"SMILES": "CS(=O)(=O)c1nc(N)c(C#N)c(-c2ccccc2O)n1", "strain": "MTCC 282", "method": "agar diffusion", "dose": "25 µg/mL", "value": "18 mm"}
{"SMILES": "Cc1[nH]n(-c2ccccc2)c(=O)c1C(=Nc1cccc(N)c1C)c1ccccc1", "method": "agar diffusion / agar", "dose": "400 µg/mL", "value": "2 mm"}
{"SMILES": "C[C@@H]1[C@H](O)[C@@H](C)/C=C/C=C/C=C/C=C/C=C/C=C/C=C/[C@H](O[C@@H]2O[C@H](C)[C@@H](O)[C@H](N)[C@@H]2O)C[C@@H]2O[C@](O)(C[C@@H](O)C[C@@H](O)[C@H](O)CC[C@@H](O)C[C@@H](O)CC(=O)O[C@H]1C)C[C@H](O)[C@H]2C(=O)O", "method": "agar diffusion / agar", "dose": "30 µg/disc", "value": "20 mm"}
{"SMILES": "Cc1nn(-c2ccccc2)c2c1C1(C(=O)N(CCCCCCN3C(=O)C4(SCC(=O)N4c4c(C)n(C)n(-c5ccccc5)c4=O)c4cc(F)ccc43)c3ccc(F)cc31)c1c(C)nn(-c3ccccc3)c1O2", "strain": "MTCC 282", "method": "agar diffusion", "dose": "100 µg/mL", "value": "20 mm"}
{"SMILES": "COc1ccc2[nH]c3nc(-n4nc(-c5ccccc5)c5ccccc5c4=O)c4ccccc4c3c2c1", "strain": "MTCC 281", "method": "agar diffusion / visual reading", "dose": "3.125 µg/mL", "value": "8 mm"}

The last 7 rows once more:

SMILES,strain,method,dose,value
CSC1=NC(c2cccc([N+](=O)[O-])c2)C(C#N)=C(N)N1,MTCC 282,agar diffusion,25 µg/mL,12 mm
Clc1ccc(COC(Cn2ccnc2)c2ccc(Cl)cc2Cl)c(Cl)c1,,agar diffusion,100 µg/mL,18 mm
CS(=O)(=O)c1nc(N)c(C#N)c(-c2ccccc2O)n1,MTCC 282,agar diffusion,25 µg/mL,18 mm
Cc1[nH]n(-c2ccccc2)c(=O)c1C(=Nc1cccc(N)c1C)c1ccccc1,,agar diffusion / agar,400 µg/mL,2 mm
C[C@@H]1[C@H](O)[C@@H](C)/C=C/C=C/C=C/C=C/C=C/C=C/C=C/[C@H](O[C@@H]2O[C@H](C)[C@@H](O)[C@H](N)[C@@H]2O)C[C@@H]2O[C@](O)(C[C@@H](O)C[C@@H](O)[C@H](O)CC[C@@H](O)C[C@@H](O)CC(=O)O[C@H]1C)C[C@H](O)[C@H]2C(=O)O,,agar diffusion / agar,30 µg/disc,20 mm
Cc1nn(-c2ccccc2)c2c1C1(C(=O)N(CCCCCCN3C(=O)C4(SCC(=O)N4c4c(C)n(C)n(-c5ccccc5)c4=O)c4cc(F)ccc43)c3ccc(F)cc31)c1c(C)nn(-c3ccccc3)c1O2,MTCC 282,agar diffusion,100 µg/mL,20 mm
COc1ccc2[nH]c3nc(-n4nc(-c5ccccc5)c5ccccc5c4=O)c4ccccc4c3c2c1,MTCC 281,agar diffusion / visual reading,3.125 µg/mL,8 mm